In patent US20030099944A1, “Combination therapy involving drugs which target cellular proteins and drugs which target pathogen-encoded proteins” (priority 1998, published 2003):

Test system: acycloguanosine-resistant and TK− strains of HSV-1

With `CC[C@H](CO)Nc1nc(NCc2ccccc2)c2ncn(C(C)C)c2n1` [Rosco, Roscovitine] the “replication of acycloguanosine-resistant and TK− strains of HSV-1” value was “efficiently”.
